Assay results published in PMC6372279 (2019).

B1: Con-Ins T2 (ligand)
chain 1: GVVEHCCKRACSNAEFMQFC
chain 2: NSDTPWNRCGSQITDSYRELCPH
B2: Con-Ins G1 (ligand)
chain 1: GVVEHCCHRPCSNAEFKKYC
chain 2: TFDTPKHRCGSEITNSYMDLCYR
B3: Con-Ins G3 (ligand)
chain 1: GIVEVCCDNPCTVATLRTFCH
chain 2: NSDTPKHRCGSELADQYVQLCH

These binders were tested against human insulin receptor, B isoform (human, UniProt P06213 28-758; P06213 763-1382).
For B1, the IC50 was 31.8 nM. For B2, the IC50 was 11 nM. B3 gave an IC50 of 46.8 nM.
